In article doi:10.1101/864173 (bioRxiv, 2019):

Target: His-TEV-Prs (E. coli Prs with an N-terminal His6 tag and TEV cleavage site, uncleaved) (E. coli)
Test: pull-down

B1: untagged Prs (phosphoribosyl pyrophosphate synthase, E. coli), after removal of the His6 tag by TEV protease (enzyme)
chain: not shown
- binding result: binds
